Measured values from several laboratories, pooled; numbers as filed in NIAID ChemDB.

Common to all: whole-cell or culture tests; species: HIV-1; cell line: C8166; measure: EC50

Rows are shuffled and stem from different studies.

SMILES,strain,changes,read by,result
COc1cc2c(c(OC)c1O)-c1c(cc3c(c1OC)OCO3)C[C@H](C)[C@H](C)[C@@H]2O,,,cytopathic effect,7.15 µg/mL
Cc1ccc(S(=O)(=O)c2c(C(N)=O)[nH]c3ccc(Cl)cc23)cc1,Efavirenz-resistant (RT K103R V179D P225H),RT-K103R V179D P225H,cytopathic effect / MTT,<93 µM
Nc1nc(NC2CC2)c2ncn([C@H]3C=C[C@@H](CO)C3)c2n1,RF,,cytopathic effect / XTT,2.9 µM
CC(=O)CCCCCCCCCCCCC[C@@H]1OC(=O)[C@@H](C)[C@@H]1C(=O)O,IIIB,,cytopathic effect / syncytia,0.66 µM
CCCOP(=O)(OCC(=O)OCC)OC[C@H]1O[C@@H](n2cc(C)c(=O)[nH]c2=O)C[C@@H]1OC(C)=O,RF,,p24,>100 µM
COc1cc(OC2O[C@H](COC3O[C@@H](C)[C@H](O)[C@@H](O)[C@H]3O)[C@@H](O)[C@H](O)[C@H]2O)c2c(C)c3c(=O)oc(C)cc3c(OC)c2c1,MN,,cytopathic effect / XTT,30 µg/mL
COc1cc([C@H]2OC[C@H]3[C@@H]2CO[C@@H]3c2cc(OC)c(O)c(OC)c2)cc(OC)c1O,IIIB,,MTT,83.5 µg/mL
COc1cccc(C2CCN(C(=O)c3cc4c([nH]c5ccccc54)c(-c4cccs4)n3)CC2)c1,IIIB,,p24 / antigen,1.1 µM
Cc1ccccc1S(=O)(=O)c1c(C(N)=O)[nH]c2ccc(Cl)cc12,IIIB,,p24,<0.005 µM
C[C@H](CCC=C(CO)CO)[C@H]1CC[C@@]2(C)C3CC=C4[C@@H](CC[C@H](O)C4(C)C)[C@]3(C)C(=O)C[C@]12C,,,cytopathic effect / MTT,13.2 µM
CCC(C)C(=O)OC/C=C/c1c(OC)cc(OC(=O)C(C)CC)cc1OC,,,cytopathic effect,2870 µM
CC[C@H](C)[C@H](NC(=O)[C@@H]1CCCN1[P@](=O)(OC)C(Cc1ccccc1)NC(=O)OCc1ccccc1)C(=O)NCC(C)C,RF,,,25 µM
Cc1ccc(N2CCN(C(=O)c3cc4c([nH]c5ccccc54)c(-c4cccs4)n3)CC2)cc1,IIIB,,syncytia,>200 µM
CCN1c2ncc(CCOc3cccc4c3CNC(=O)N4)cc2C(=O)N(C)c2cccnc21,,RT-K103N Y181C,p24,<0.01 µM
O=C(c1cc2c([nH]c3ccccc32)c(-c2cccs2)n1)N1CCC(c2ccc([N+](=O)[O-])cc2)CC1,IIIB,,syncytia,3.8 µM
c1ccc2c(-c3ccc(-c4ccc(-c5ccc(-c6cccc7ccccc67)s5)c5ccccc45)s3)cccc2c1,IIIB,,p24 / ELISA / antigen,11.19 µM
CCN1c2ncc(CCOc3ccc(-c4ccc(C)[n+]([O-])c4)cc3C)cc2C(=O)N(C)c2cccnc21,,RT-K103N Y181C,p24,<0.01 µM
COc1nc(N(C)C)nc(C(=O)c2c(F)cccc2F)c1C,IIIB,EFV-resistant (K103R V179D P225H),MTT,>20 µM
CC[C@H](C)[C@H](NC(=O)[C@@H]1CCCN1[P@@](=O)(OC)[C@@H](Cc1ccccc1)NC(=O)OCc1ccccc1)C(=O)NCC(C)C,RF,,,>100 µM
Cc1cn([C@H]2C=C[C@@H](COC(=O)CC3(C)C[C@](C)(O)CO3)O2)c(=O)[nH]c1=O,,,cytopathic effect,8 µM
COc1cc(C(C#N)c2c(F)cccc2F)nc(N(C)C)n1,IIIB,EFV-resistant (K103R V179D P225H),MTT,>40 µM
CCC(C)[C@H](NC(=O)[C@@H]1CCCN1[P@](=O)(OC)[C@H](Cc1ccccc1)NC(=O)[C@H](CC(N)=O)NC(=O)OC(C)(C)C)C(=O)NCC(C)C,RF,,,>100 µM
O=C(c1cc2c([nH]c3ccccc32)c(-c2cccs2)n1)N1CCC(c2ccncc2)CC1,IIIB,,syncytia,60.8 µM
COc1cc([C@H]2OC[C@H]3[C@@H]2CO[C@@H]3c2ccc(O)c(OC)c2)ccc1O,IIIB,,MTT,>200 µg/mL
CCN1c2ncc(CCOc3cccc4c3CNC(=O)N4)cc2C(=O)Nc2c(C)ccnc21,,RT-K103N Y181C,p24,0.01–0.05 µM
Cc1cn([C@H]2C[C@H](N=[N+]=[N-])[C@@H](CO)O2)c(=O)[nH]c1=O,BaL,,fluorescence,0.17 µM
COc1cc([C@H]2OC[C@H]3[C@@H]2CO[C@@H]3c2cc(OC)c(O[C@@H]3O[C@H](O)[C@@H](O)[C@H](O)[C@H]3O)c(OC)c2)cc(OC)c1O,IIIB,,MTT,>200 µg/mL
COc1ccccc1C1CCN(C(=O)c2cc3c([nH]c4ccccc43)c(-c3cccs3)n2)CC1,IIIB,,p24 / antigen,5.6 µM
COc1nc(N(C)C)nc(C(C#N)c2c(F)cccc2F)c1C,IIIB,EFV-resistant (K103R V179D P225H),MTT,>10 µM
O=C(O)c1cn(Cc2ccccc2)c2ccc(Cc3cccc(Cl)c3F)c(O)c2c1=O,IIIB,,,3.54 µM
CCOC(=O)c1nnsc1Nc1ccccc1Nc1snnc1C(=O)OCC,NNRTI-R K103N Y181C,,p24,4.5 µM
COc1cccc(OC)c1C(=O)c1nc(N(C)C)nc(OC)c1C,IIIB,EFV-resistant (K103R V179D P225H),MTT,>8 µM
CCN1c2ncc(CCOc3ccc(-c4ccc(CC(=O)O)c(F)c4)cc3C)cc2C(=O)N(C)c2cccnc21,IIIB,,p24,<0.01 µM
Cc1cn([C@H]2C[C@H](N=[N+]=[N-])[C@@H](CO)O2)c(=O)[nH]c1=O,A17,,p24,0.00411 µg/mL
CC(C)(C)OC(=O)N[C@@H](CC1CCCCC1)[C@@H](O)CC(=O)N[C@@H](CCC(=O)O)C(=O)NCCCc1ccccc1,IIIB,,syncytia,<20 µg/mL
O=C(NCc1ccc(F)cc1)c1nc(N2CCCCS2(=O)=O)c2cccnc2c1O,IIIB,,syncytia,0.0106 µM
COc1cc([C@H]2c3cc(O)c(OC)cc3C[C@@H](COC(C)=O)[C@@H]2COC(C)=O)ccc1O,IIIB,,MTT,>200 µg/mL
CCN1c2ncc(CCOc3cccc4c3CN(O)C4=O)cc2C(=O)N(C)c2cccnc21,,RT-K103N Y181C,p24,0.01–0.05 µM
COc1nc(N(C)C)nc(Cc2c(F)cccc2F)c1C,IIIB,EFV-resistant (K103R V179D P225H),MTT,>67 µM
COC(=O)C(C)OP(=O)(OC)OC[C@H]1O[C@@H](n2cc(C)c(=O)[nH]c2=O)C[C@@H]1N=[N+]=[N-],RF,,p24,0.6 µM
O=C(c1cc2c([nH]c3ccccc32)c(-c2cccs2)n1)N1CCC(Cc2ccccc2)CC1,IIIB,,p24 / antigen,20.4 µM
CCN1c2ncccc2NC(=O)c2cc(CCOc3ccc(-c4ccc(CC(=O)O)cc4)cc3C)cnc21,,RT-K103N Y181C,p24,0.01–0.05 µM
COc1cc([C@H]2OC[C@H]3[C@@H]2CO[C@H]3c2ccc(O)c(OC)c2)ccc1O,IIIB,,MTT,>200 µg/mL
CCN1c2ncc(CCOc3ccc(-c4cc[n+]([O-])cc4)cc3)cc2C(=O)N(C)c2cccnc21,,RT-K103N Y181C,p24,<0.01 µM
CCN1c2ncc(CCOc3cccc4c3CNC(=O)N4CC(=O)O)cc2C(=O)N(C)c2cccnc21,IIIB,,p24,>0.05 µM
CC/C(C)=N/OCCOCn1cnc2c(=O)[nH]c(N)nc21,IIIB,,,>50 µM
Cc1cn([C@H]2C[C@H](N=[N+]=[N-])[C@@H](CO)O2)c(=O)[nH]c1=O,IIIB,,cytopathic effect / syncytia,0.01889 µM
CC[C@H](C)[C@H](NC(=O)[C@@H](Cc1ccccc1)NP(=O)(OC)C(Cc1ccccc1)NC(=O)C(CC(N)=O)NC(=O)OC(C)(C)C)C(=O)NCC(C)C,RF,,,>100 µM
O=C(c1cc2c([nH]c3ccccc32)c(-c2cccs2)n1)N1CCC(c2cccc(Cl)c2Cl)CC1,IIIB,,syncytia,95.8 µM
CC(CCC=C(CO)CO)C1CC[C@@]2(C)[C@@H]3CC=C4[C@@H](CCC(O)C4(C)C)[C@]3(C)C(O)C[C@]12C,,,cytopathic effect / MTT,63.1 µM
Cc1c(C(=O)c2c(F)cccc2F)nc(N(C)C)[nH]c1=O,IIIB,EFV-resistant (K103R V179D P225H),MTT,>100 µM
CCN1c2ncc(CCOc3ccc(NC(=O)CC4(C(=O)O)CCCC4)cc3C)cc2C(=O)N(C)c2cccnc21,,RT-K103N Y181C,p24,<0.01 µM
COc1cc2c(c(O)c1OC)-c1c(cc(OC(C)=O)c(OC)c1O)C[C@@H](C)[C@@H](C)C2,,,cytopathic effect,1.42 µg/mL
CC(=O)O[C@@H]1C[C@@]2(C)C3CC=C4[C@@H](C[C@H](O)[C@@H](O)C4(C)C)[C@]3(C)C(=O)C[C@]2(C)C1C(C)(O)C(=O)/C=C/C(C)(C)OC(C)=O,,,cytopathic effect / MTT,80.2 µM
CC(C)OC(=O)OCOP(=O)(CO[C@H](C)Cn1cnc2c(N)ncnc21)OCOC(=O)OC(C)C,,V106M,p24 / ELISA,0.01098 µM
NC(=O)c1[nH]c2ccc(Cl)cc2c1S(=O)(=O)c1ccccc1,IIIB WT,,p24,<0.0007 µM
COc1cc(C[C@H]2COC[C@@H]2Cc2ccc(O)c(OC)c2)ccc1O,IIIB,,MTT,>200 µg/mL
CCCCCCCCCCCCOP(=O)(OCC(=O)OCC)OC[C@H]1O[C@@H](n2cc(C)c(=O)[nH]c2=O)C[C@@H]1N=[N+]=[N-],RF,,p24,3 µM
CC/C=N/OCCOCn1cnc2c(=O)[nH]c(N)nc21,IIIB,,,>50 µM
CO[C@@H]1[C@@H](OC(=O)c2ccc(C)[nH]2)[C@@H](O)C(Oc2ccc3c(O)c(NC(=O)c4c[nH]c(C(=O)Nc5c(O)c6ccc(OC7OC(C)(C)[C@H](OC)[C@@H](OC(=O)c8ccc(C)[nH]8)[C@H]7O)c(C)c6oc5=O)c4C)c(=O)oc3c2C)OC1(C)C,NL4-3,,p24 / antigen,0.33 µM
NC(=O)c1[nH]c2ccc(Cl)cc2c1S(=O)(=O)c1ccccc1,Efavirenz-resistant (RT K103R V179D P225H),RT-K103R V179D P225H,cytopathic effect / MTT,<0.9 µM
CCCCCC(O)/C=C/C=C\CCCCCC[C@@]1(O)C[C@H](C(=O)OC)[C@H](C(C)=O)O1,IIIB,,cytopathic effect / syncytia,0.08 µM
CCN1C[C@H](C)n2c(c(O)c3c(=O)n(Cc4ccc(F)c(Cl)c4)nc(C(=O)NC)c32)C1=O,IIIB,,syncytia,0.0115 µM
Nc1nc2c(ncn2COCCO/N=C/c2ccccc2)c(=O)[nH]1,IIIB,,,>50 µM
CC[C@H](C)[C@H](NC(=O)[C@@H]1CCCN1P(=O)(OC)C(CC1CCCCC1)NC(=O)[C@@H](CC(N)=O)NC(=O)c1ccc2ccccc2n1)C(=O)NCC(C)C,RF,,,15 µM

The last 4 rows once more:

SMILES,strain,changes,read by,result
CCCCCC(O)/C=C/C=C\CCCCCC[C@@]1(O)C[C@H](C(=O)OC)[C@H](C(C)=O)O1,IIIB,,cytopathic effect / syncytia,0.08 µM
CCN1C[C@H](C)n2c(c(O)c3c(=O)n(Cc4ccc(F)c(Cl)c4)nc(C(=O)NC)c32)C1=O,IIIB,,syncytia,0.0115 µM
Nc1nc2c(ncn2COCCO/N=C/c2ccccc2)c(=O)[nH]1,IIIB,,,>50 µM
CC[C@H](C)[C@H](NC(=O)[C@@H]1CCCN1P(=O)(OC)C(CC1CCCCC1)NC(=O)[C@@H](CC(N)=O)NC(=O)c1ccc2ccccc2n1)C(=O)NCC(C)C,RF,,,15 µM

Blank or dashed fields: not listed here. Two numbers with a dash give a range or band. ECn is the concentration giving n% inhibition of infection, replication or growth.